Here are results for one substance from patent US10266566B2, “Protease-resistant peptide ligands” (North Carolina State University, priority 2013, dated 2019).

The subject of data set [1] is IgG. The data set can be described thus: Purification of IgG (IVIG) from Cohn fraction II+III of human plasma, yield and purity. The settings on record: binding 0.25M NaCl in PBS. Here is the method: Cohn fraction II+III was dissolved in PBS, pH 7.4 to obtain an approximate IgG concentration of 5 mg/mL and filtered sequentially using a 0.44 μm and a 0.22 μm filter from Pall Corporation (Port Washington, N.Y., USA). Each peptide resin was packed and swollen as described before. After equilibration with PBS buffer containing 0.25M NaCl, 100 μL of feed sample was loaded onto the column at a flow rate of 0.05 mL/min (87 cm/h). After washing the column with 2 mL of equilibration buffer at a flow rate of 0.2 mL/min (348 cm/h), elution was performed with 4 mL of 0.2M acetate buffer pH 5.0 at a flow rate of 0.4 mL/min (696 cm/h). […] The effluent was monitored by absorbance at 280 nm. […]
The amount of IgG in the collected fractions was quantified by HPLC using 1 mL HiTrap Protein G column. The yield of IgG was calculated as the ratio of IgG eluted to total IgG loaded. The purity of IgG in the eluted fractions was determined by sodium dodecyl sulfate polyacrylamide gel electrophoresis (SDS-PAGE) under reducing conditions using NuPAGE® Novex 4-12% Bis-Tris gels in a Xcell SuperLock™ Mini-Cell system (LifeSciences, Carlsbad, Calif., USA). […] The IgG purity was determined by densitometric analysis of Coomassie-stained gels by means of ImageJ 1.32j software (National Institutes of Health, Bethesda, Md., USA). […]

The target in data set [2] is IgG. Conditions: protein ligands for antibody purification; read-out: dissociation constant; cited from earlier work.

“Protein A: protein affinity ligand; Toyopearl AF-rProtein A-650F resin used as positive control”: the “IgG Yield” value in the data set with IgG [1] (elution 0.2M acetate pH 5.0 (Protein A: PBS binding, 0.1M glycine pH 2.5 elution)) is 94%. Moreover, the “IgG Purity” value in the data set on IgG [1] (densitometry of SDS-PAGE, elution pH 5.0 (Protein A: PBS, glycine pH 2.5)) worked out at 75%. Moreover, the Kd on IgG [2] was approximately 10 nM.
